Test results from PubChem BioAssay AID2391 (Southern Research Specialized Biocontainment Screening …, 2010).
This is one part of the list. Entries with a potency or affinity are not part of this list. Calls of active or inactive are those of the source. The rule behind the calls is not given here.

Test: RSV antiviral activity via CPE protection, HEp-2 cells, primary 10 µM value included (AID 2391)
Details: RSV-induced CPE inhibition, at 10 µM, hits give high values

SMILES	CPE inhibition
O=C(OC1CN2CCC1CC2)c1ccccc1 (centres undefined)	inactive: -2.31%
CCC(=O)N1C2C3N(C(=O)CC)C1C1N(C(=O)CC)C(C(N1C(=O)CC)N3C(=O)CC)N2C(=O)CC	inactive: 2.03%
COC(=O)c1cc2c(s1)N=C(c1ccccc1)N(C)P2(=O)N1CCOCC1 (centres undefined)	inactive: 0.05%
CC(=O)NC(SC(=S)N(CC(C)C)CC(C)C)C(Cl)(Cl)Cl (centres undefined)	inactive: 2%
Cc1ccc(OP(=O)(Nc2ccccn2)Oc2ccc(C)cc2)cc1	inactive: 7.29%
Cc1ccccc1OP(=O)(Nc1ccccn1)Oc1ccccc1C	inactive: 1.75%
CN(C)C(=O)Oc1noc2ccccc12	inactive: 0.87%
c1ccc(-c2nn[nH]n2)c(-c2nn[nH]n2)c1	inactive: 0.05%
Cc1ccc(NP(=O)(Oc2cccc(C)c2)Oc2cccc(C)c2)nc1	inactive: 0.05%
CCOC(=O)NC(Sc1ccccc1)C(Cl)(Cl)Cl (centres undefined)	inactive: 3.94%
CCNC(=S)/N=C(\N)N[N+](=O)[O-]	inactive: 0.89%
O=C(NC1CCS(=O)(=O)C1)NP(=S)(Oc1ccccc1)Oc1ccccc1 (centres undefined)	inactive: -0.27%
Cc1ccccc1CN(C)C(=O)COC(=O)C(O)(c1ccccc1)c1ccccc1	inactive: 1.55%
C[C@H]1OP(=O)(Oc2ccccc2)C[C@@H]2O[C@@H]21 (some centres undefined)	inactive: 2.8%
C[C@@H]1C=CCP(=O)(Oc2ccccc2)O1 (some centres undefined)	inactive: 0.39%
CC(=O)c1ccc(N2CC2c2ccncc2)cc1 (centres undefined)	inactive: 0.38%
CC(=O)Nc1ccc([As](=O)(O)O)c(O)c1	inactive: -0.94%
CC(=O)Nc1ccc(Oc2c([N+](=O)[O-])cc([N+](=O)[O-])cc2[N+](=O)[O-])cc1	inactive: 2.12%
O=P1(Nc2nc3ccc(Cl)cc3s2)COc2ccccc2O1 (centres undefined)	inactive: 2.84%
CCOc1ccc(C2=NCC(CBr)S2)cc1 (centres undefined)	inactive: 0.56%
CC(C)(C)C(=O)NC(Sc1ccccc1)C(Cl)(Cl)Cl (centres undefined)	inactive: -1.65%
CC(C)C(=O)NC(Sc1ccccc1)C(Cl)(Cl)Cl (centres undefined)	inactive: 1.75%

SMILES	CPE inhibition
O=P(Nc1nccs1)(c1ccccc1)c1ccccc1	inactive: 0%
c1nnnn1CCn1cnnn1	inactive: 0.47%
O=[As](O)(c1ccccc1)c1ccc(O)cc1	inactive: -0.18%
O=[N+]([O-])c1ccc(O)c(/C=N/Nc2ccc([N+](=O)[O-])cc2[N+](=O)[O-])c1	inactive: -2.21%
CC(=O)NC(SC(=S)N(C)C)C(Cl)(Cl)Cl (centres undefined)	inactive: 1.1%
O=[N+]([O-])c1ncn(CCn2cnc([N+](=O)[O-])n2)n1	inactive: -0.04%
O=C(OC1CN2CCC1CC2)c1cccc(Cl)c1 (centres undefined)	inactive: -0.6%
C(Cc1nn[nH]n1)Cc1nn[nH]n1	inactive: 1.12%
Nc1ccc([As](=O)(O)c2ccc([N+](=O)[O-])cc2)cc1	inactive: -0.32%
O=P(Nc1ccccn1)(c1ccc(Br)cc1)c1ccc(Br)cc1	inactive: 6.65%
CN(C)C1(CNC(=O)c2ccc(Cl)c(S(N)(=O)=O)c2)CCCCC1	inactive: -0.28%
O=P(Nc1nc2ccccc2s1)(c1ccccc1)c1ccccc1	inactive: 1.43%
C[C@H]1OP(=O)(Oc2ccccc2)[C@H](O)[C@H](O)[C@H]1N=[N+]=[N-] (some centres undefined)	inactive: 0.56%
O=[N+]([O-])c1ncn(CCn2ncnc2[N+](=O)[O-])n1	inactive: 1.53%
CC(C)(C)C(=O)NC(Sc1ccncn1)C(Cl)(Cl)Cl (centres undefined)	inactive: -0.47%
O=C(O)CNc1ccc([As](=O)(O)O)cc1	inactive: 1.53%
O=[N+]([O-])c1cccc(NC2=NCC(CBr)S2)c1 (centres undefined)	inactive: 1.95%
O=C(Nc1cc([As](=O)(O)O)ccc1O)c1ccccc1	inactive: -0.02%
CCN(/C(=N/P(=O)(N1CCOCC1)N1CCOCC1)N1CCOCC1)c1ccc(OC)cc1	inactive: 1.87%
Nc1ccc([As](=O)(O)c2ccc(N)cc2)cc1	inactive: 0.8%
C[N+]1=C2C=CC=CC=C2SC12C([N+](=O)[O-])=CC([N+](=O)[O-])=C[C-]2[N+](=O)[O-] (centres undefined)	inactive: 2.06%
CC1CCN(C(=O)Oc2c(Cl)cc(Cl)c3cccnc23)CC1	inactive: 3.63%

SMILES	CPE inhibition
CC(C)=N/N=C(\N)N[N+](=O)[O-]	inactive: -1.06%
CN(C)C(=O)OCCc1n(C)cc[n+]1C	inactive: 1.91%
COc1ccc(C2=NCC(CBr)S2)cc1 (centres undefined)	inactive: 0.22%
Cc1ccc(NP(=O)(Oc2ccccc2)Oc2ccccc2)nc1	inactive: -0.02%
CCc1nc2c(n1)c1c(non1O)c1c2no[n+]1[O-]	inactive: 5.49%
O=[N+]([O-])c1cc([N+](=O)[O-])c(CCNc2ccccc2)c([N+](=O)[O-])c1	inactive: -0.82%
O=[N+]([O-])c1cccc2n[nH]nc12	inactive: 1.05%
CC(=O)N1C2C3N(C(C)=O)C1C1N(C(C)=O)C(C(N1C(C)=O)N3C(C)=O)N2C(C)=O	inactive: 0.46%
Oc1ccccc1CNc1ccccn1	inactive: 0.42%
O=C(NC(Sc1ccncn1)C(Cl)(Cl)Cl)c1ccccc1 (centres undefined)	inactive: 0.98%
Cc1c2non([O-])c-2c(C)[n+](=O)[n+]1[O-]	inactive: -0.78%
CC(C)CC(=O)NC(Sc1ccc(Cl)cc1)C(Cl)(Cl)Cl (centres undefined)	inactive: -0.12%
CN(C(=O)Cc1ccc(Cl)c(Cl)c1)[C@H]1CCCC[C@H]1N1CCCC1	inactive: -1.44%
Cc1ccc(N/C(=N/P(=O)(N2CCOCC2)N2CCOCC2)N2CCOCC2)cc1	inactive: 1.28%
NC(=O)c1cc([N+](=O)[O-])cc([N+](=O)[O-])c1N	inactive: 2.38%
CN1CCCC(OC(=O)C(c2ccccc2)c2ccccc2)C1 (centres undefined)	inactive: 1.61%
Clc1ccc(Cl)c(NC2=NCC(CBr)S2)c1 (centres undefined)	inactive: -0.77%
COc1ccccc1OP(=O)(Nc1ccc(C)cn1)Oc1ccccc1OC	inactive: 1.64%
Cc1ccc(OP(=O)(Nc2nccs2)Oc2ccc(C)cc2)cc1	inactive: 0.5%
O=[N+]([O-])c1cc([N+](=O)[O-])c(CCN2CCOCC2)c([N+](=O)[O-])c1	inactive: 2.46%
